Measured values from several laboratories, pooled; numbers as filed in NIAID ChemDB.

Common to all: toxicity to cultured cells; read-out: CC50

Blank or dashed fields: not listed here. Lines come from different laboratories, so protocols vary. Two numbers with a dash give a range or band. CCn: concentration that lowers growth or viability of the cells by n%.

structure | cell line | method | result
C1CN(CC2CO2)CC[N+]2(C1)CC[N+]1(CCCN(CC3CO3)CC1)CC2 | K562 | - | 141.1 µg/mL
CC(C)N(Cc1cccc(OCCCCCC(=O)OC(=O)O)c1)C(=O)c1ccc(-c2cccc(-c3ccccc3)c2)cc1 | HEK 293 | - | >20 µM
[N-]=[N+]=N[C@]1(CO)O[C@@H](n2ccc(NC3CC3)nc2=O)[C@@H](F)[C@@H]1O | Hep2.2.15 | MTT | 391 µM
CCOC(=O)/C=C/[C@H](Cc1ccccc1)NC(=O)[C@H](Cc1ccccc1)NC(=O)OCc1ccccc1 | HeLa cells | cell count | 121.4 µM
CON(C)c1ccn([C@@H]2O[C@@](CO)(N=[N+]=[N-])[C@@H](O)[C@@H]2F)c(=O)n1 | Hep2.2.15 | MTT | >250 µM
COc1ccc(CNCCNc2ccnc3cc(Cl)ccc23)cc1 | HepG2 cells | MTT | 5.816 µM
C#CCNC(=O)NCCCC[C@H](NC(C)=O)C(=O)NCc1ccccc1 | CEM-IW | - | >100 µM
Cn1c(=O)cc(Sc2ccc(I)cc2)c2ccccc21 | Huh-Luc-Neo | - | >100 µM
C[C@@]1(O)[C@H](O)[C@@H](COP(=O)(O)OP(=O)(O)OP(=O)(O)O)O[C@H]1n1ccc2c(N)ncnc21 | HELA OHIO-1 | - | >200 µM
CCn1c(=O)cc(Sc2ccc(Br)cc2)c2ccccc21 | Huh-Luc-Neo | - | >100 µM
N#CCN(CC#N)CCN1CCC(NC(=O)C(=O)Nc2ccc(Cl)cc2)CC12CCCCC2 | PM1 | WST | 57 µM
CC[C@H](C)[C@H]1OC(=O)[C@H](C(C)C)N(C)C(=O)[C@@H]([C@@H](C)CC)OC(=O)[C@H](C(C)C)N(C)C(=O)[C@@H]([C@@H](C)CC)OC(=O)[C@H](C(C)C)NC1=O | BC-cells | absorbance | 1 µM
OC(Cn1cncn1)(Cn1cncn1)c1ccc(F)cc1F | 293T | MTT | >400 µM
O=C(Cc1nc(=O)n(O)c2ncccc12)NCc1ccccc1 | PM1 | - | 1.96 µM
CC1(C)CC(NC(=O)C(=O)Nc2ccc(Cl)cc2)CC(C)(C)N1 | PM1 | WST | 62 µM
O=c1nc(NCc2ccc(-c3ccccn3)s2)c2cccnc2n1O | PM1 | - | >10 µM
Cn1c(=O)cc(Sc2c(Cl)cccc2Cl)c2ccccc21 | Huh-Luc-Neo | - | >100 µM
OC[C@H]1O[C@@H](n2c(Br)nc3cc(Cl)c(Cl)cc32)[C@H](O)[C@@H]1O | CBL | neutral red | >109 µM
Cc1cc(NC(=O)c2c(C)c(C(=O)C(=O)NC3CCC(S(C)(=O)=O)CC3)n(C)c2C2CC2)ccc1F | HepG2 | MTT | >30 µM
Oc1ccc(-c2n[nH]c(C(F)(F)F)c2-c2ccc(Br)cc2)c(O)c1 | NRK-52E | resazurin | 7.58 µg/mL
O=C(NCc1ccc(Cl)cc1)c1cn2c3c(cc(CN4CCOCC4)cc3c1=O)OC(c1cccnc1)C2 | CBL | MTS | >18.8 µM
Cn1c(=O)cc(Sc2ccc(N)cc2)c2ccc(Cl)cc21 | Huh-Luc-Neo | - | 10–100 µM
NC(N)=NCCCCC(=O)NCCN1CCC(NC(=O)C(=O)Nc2ccc(Cl)cc2)CC12CCCCC2 | PM1 | WST | 225 µM
Cc1cc(NC(=O)c2c(C(C)C)c(C(=O)C(=O)NC3(C)CC(O)C3)n(C)c2C)ccc1F | HepG2 | MTT | >30 µM
Cc1nc(Cl)c([N+](=O)[O-])c(N2CC[N+]3(CC2)CC[N+]2(CCN(c4nc(C)nc(Cl)c4[N+](=O)[O-])CC2)CC3)n1 | K562 | - | >288 µg/mL
COC1=CCC(C2C3(CO)C4N(Cc5ccc(OC)cc5)C5C6(CO)C(c7ccc(OC)cc7)C4(CO)C3N(Cc3ccc(OC)cc3)C6C25CO)C=C1 | EPG85-257P | - | 23.8 µM
Cc1cc(NC(=O)c2c(C)c(C(=O)C(=O)NC3CCC(O)CC3)n(C)c2CC2CC2)ccc1F | HepG2 | MTT | >30 µM
CCCCCCCCCc1ccc(OCCOCCOCCOCCOCCOCCOCCOCCOCCO)cc1 | P4-CCR5 | MTT | 70 µg/mL
[N-]=[N+]=N[C@]1(CO)O[C@@H](n2ccc(NCc3ccco3)nc2=O)[C@@H](F)[C@@H]1O | Hep2.2.15 | MTT | <2 µM
Cc1ccc(NC(=O)NCCSCc2ccc(CNC(C)C)o2)cc1Cl | MAGI | - | >100 µM
COc1ccc(CN2C3C4(CO)C(c5ccccc5)C5(CO)C2C2(CO)C(C6C=CC=CC6)C3(CO)C4N(Cc3ccc(OC)cc3)C52)cc1 | EPG85-257P | - | 80 µM
CC(=O)N[C@@H](CCCNC(=O)OCc1ccccc1)C(=O)O | CEM-IW | - | >100 µM
CCOC(=O)CCCCCOc1cccc(CN(C(=O)c2ccc(-c3cc(F)cc(OC)c3)cc2)C(C)C)c1 | RAJI | - | >20 µM
CNc1nc2c(Cl)c(Cl)ccc2n1COCCO | KB | - | >100 µM
Cc1cc(NC(=O)c2c(C)c(C(=O)C(=O)N[C@@H]3CC[C@@H](O)CC3(C)C)n(C)c2C)ccc1F | HepG2 | MTT | >30 µM
Nc1nc2cc(Cl)c(Cl)cc2n1COC(CO)CO | KB | - | >100 µM
COc1c2c(c(OC)c3occc13)OC=C(C=O)C2O | HCV replicon cells | - | 234 µM
Fc1ccc(CNCCNc2ccnc3cc(Cl)ccc23)cc1 | HepG2 cells | MTT | 16 µM
Cc1c(C(=O)Nc2cc(Cl)nc(Cl)c2)c(C)n(C)c1C(=O)C(=O)NC1CCC(O)CC1 | HepG2 | MTT | >30 µM
Cc1ccc(NC(=S)Nc2ccc(Sc3cc(=O)n(C)c4ccc(C)cc34)cc2)cc1 | Huh-Luc-Neo | - | >100 µM
CCCNCc1ccc(OCC(=O)OCC)cc1 | HEK 293 | - | >20 µM
Cc1cc(NC(=O)c2c(C)c(C(=O)C(=O)N[C@H]3C[C@@H]4CC[C@H]3C4)n(C)c2C)ccc1F | HepG2 | MTT | 5–30 µM
C[C@H](CCC(=O)NCCCCN(CCCNC(=O)CC[C@@H](C)[C@H]1CC[C@H]2[C@@H]3[C@H](OS(=O)(=O)O)C[C@@H]4C[C@H](OS(=O)(=O)O)CC[C@]4(C)[C@H]3C[C@H](OS(=O)(=O)O)[C@]12C)C(=O)CC[C@@H](C)[C@H]1CC[C@H]2[C@@H]3[C@H](OS(=O)(=O)O)C[C@@H]4C[C@H](OS(=O)(=O)O)CC[C@]4(C)[C@H]3C[C@H](OS(=O)(=O)O)[C@]12C)[C@H]1CC[C@H]2[C@@H]3[C@H](OS(=O)(=O)O)C[C@@H]4C[C@H](OS(=O)(=O)O)CC[C@]4(C)[C@H]3C[C@H](OS(=O)(=O)O)[C@]12C | CaSki | MTS | >1000 µg/mL
Cc1ccc(Sc2cc(=O)n(C)c3ccc(F)cc23)cc1 | Huh-Luc-Neo | - | >100 µM
Nc1ccn(C[C@@H](CO)OCP(=O)(O)O)c(=O)n1 | CBL | - | >159 µM
Cn1cc(C(=O)NCc2ccc(Cl)cc2)c(=O)c2cc(CN3CCOCC3)ccc21 | REF-5 | - | >100 µM
CN(C)C(=O)/C=C/[C@H](Cc1ccccc1)NC(=O)[C@H](Cc1ccccc1)NC(=O)OCc1ccccc1 | HeLa cells | cell count | 210 µM
OCCOCn1c(Cl)nc2cc(Cl)c(Cl)cc21 | KB | - | >320 µM
CCc1c(C(=O)Nc2ccc(F)c(C)c2)c(C)c(C(=O)C(=O)NC2(C)CC(O)C2)n1C | HepG2 | MTT | >30 µM
COc1ccnc2[nH]cc(C(=O)C(=O)N3CCN(C(=O)c4ccccc4)C[C@H]3C)c12 | PM1 | - | >225 µM
CCC1(NC(=O)C(=O)c2c(C)c(C(=O)Nc3ccc(F)c(C)c3)c(C)n2C)CCC(O)CC1 | HepG2 | MTT | >30 µM
CCOC(=O)COc1ccc(C=O)cc1 | HEK 293 | - | >20 µM
CC(C)(C)c1ccc(CNCCCNc2ccnc3cc(Cl)ccc23)cc1 | HepG2 cells | MTT | 2.173 µM
Nc1nc2c(ncn2COC(CO)CO)c(=O)[nH]1 | HET | - | 250 µM
O=C(Nc1ccc2c(c1)OCO2)C(=O)NC1CCNC2(CCCCC2)C1 | PM1 | WST | 211 µM
CCOC(=O)CCCCCOc1cccc(CN(C(=O)c2ccc(-c3cccc(-c4nnc(C)o4)c3)cc2)C(C)C)c1 | BJ | - | >20 µM
CCOC(=O)/C=C/[C@H](C[C@@H]1CCNC1=O)NC(=O)[C@@H](CC(=O)[C@@H](NC(=O)c1cc(C)on1)C(C)C)Cc1ccc(F)cc1 | OHIO HELA-I | - | >100 µg/mL
CCOC(=O)/C=C/[C@H](Cc1ccccc1)NC(=O)[C@H](CC(C)C)NC(=O)OCc1ccccc1 | HeLa cells | cell count | 346 µM
OCCOCn1c(=S)[nH]c2c(Cl)c(Cl)ccc21 | KB | - | >100 µM
CC(C)(C)OC(=O)NCC(=O)NCCN1CCC(NC(=O)C(=O)Nc2ccc(Cl)cc2)CC12CCCCC2 | PM1 | WST | 19 µM
CC(C)N(Cc1cccc(OCCCCCC(=O)OC(=O)O)c1)C(=O)c1ccc(-c2ccc(Cl)c(Cl)c2)cc1 | RAJI | - | >20 µM
O=[N+]([O-])c1cncnc1N1CC[N+]2(CC1)CC[N+]1(CCN(c3ncncc3[N+](=O)[O-])CC1)CC2 | GMK | - | >369.4 µg/mL
OCCOCn1c(SCc2ccccc2)nc2c(Cl)cc(Cl)cc21 | KB | - | >100 µM
Clc1ccc2c(NCCNCc3ccc(Br)cc3)ccnc2c1 | HepG2 cells | MTT | 6.583 µM
O[C@@H]1[C@H](O)[C@H](O)CO[C@H]1n1c(Br)nc2cc(Cl)c(Cl)cc21 | CBL | neutral red | >122 µM
C=CCN(N=O)C(=O)N(CCC)CCC[C@H](NC(C)=O)C(=O)NCc1ccccc1 | CEM-IW | - | >100 µM
O=C(NCc1ccc(Cl)cc1)c1cn2c(CCO)cc3cc(CN4CCOCC4)cc(c1=O)c32 | BCBL-1 | MTS | >20.8 µM
Cn1c(=O)cc(Sc2ccc(F)cc2)c2cc(F)ccc21 | Huh-Luc-Neo | - | >100 µM

The first 5 rows once more:

structure	cell line	method	result
C1CN(CC2CO2)CC[N+]2(C1)CC[N+]1(CCCN(CC3CO3)CC1)CC2	K562	-	141.1 µg/mL
CC(C)N(Cc1cccc(OCCCCCC(=O)OC(=O)O)c1)C(=O)c1ccc(-c2cccc(-c3ccccc3)c2)cc1	HEK 293	-	>20 µM
[N-]=[N+]=N[C@]1(CO)O[C@@H](n2ccc(NC3CC3)nc2=O)[C@@H](F)[C@@H]1O	Hep2.2.15	MTT	391 µM
CCOC(=O)/C=C/[C@H](Cc1ccccc1)NC(=O)[C@H](Cc1ccccc1)NC(=O)OCc1ccccc1	HeLa cells	cell count	121.4 µM
CON(C)c1ccn([C@@H]2O[C@@](CO)(N=[N+]=[N-])[C@@H](O)[C@@H]2F)c(=O)n1	Hep2.2.15	MTT	>250 µM